Molecular target: Machupo virus (MACV) L protein (Machupo virus) (UniProt Q6IUF8)
Assay: cryo-EM structure

With “Machupo virus (MACV) L protein, Q6IUF8 1-2209” the stoichiometry N was 2.

— paper PMC8546121, “Structure of Machupo virus polymerase in complex with matrix protein Z” (2021)
